Numbering of substitutions follows the chain as printed.
B1: TCN-542 (5079_A16) (antibody, V domains shown)
VH: QVQLQESGPGLVKPSQTLSLTCTVSGGSISSGNYYWNWVRQHPGKGLEWIGYIYYRGSTFYNPSLKSRVTISIDTSKNQFSLRLSSVTAADTAVYYCAKDTRSSLDNYQYGMDVWGQGTTVTVSS
VL: QTVVTQEPSLTVSPGGTVTLTCASSTGAVTSSYFPNWFQQKPGQAPRPLIYSTTIRHSWTPARFSGSLLGGKAALTLSGVQPEDEADYYCLLYSGGDPVAFGGGTKLTVL
B2: TCN-543 (5081_G23) (antibody, V domains shown)
VH: QVHLVQSGAEVRKPGDSVKVSCKTSGYTFSTYPVAWVRQVPGQGLEWMGWISTYNGNTNFAQNFQGRVTLTTDTTTNTAYMEVRSLKFDDTAVYYCARVEGSYRDFWNNQNRFDPWGQGTLVTVSS
VL: SYVLTQPPSVSVAPGQTARISCGGSNIGGKSVHWYQQKPGQAPVLVVYDDSGRPSGIPERFSGSNSGDTATLTISRVEAGDEADYFCQVWDNFGGVFGTGTKVTVL
B3: TCN-544 (5082_A19) (antibody, V domains shown)
VH: QVQLQESGPGLVKPSETLSLTCTVSRGSIGHYFWSWIRQPPGKGLEWIGYISYSGSTKYNPSLRSRVTISVDTSKNQFSLNLNSVTATDTALYYCAREDYDILTGAGPGMEVWGQGTTVTVSS
VL: QSMLTQPPSASGTPGQRVTISCSGSSSNIGSNTVNWFKHLPGTAPKLLIYRNDLRPSGVPDRFSGSKSGTSASLAISGLQSEDEADYYCATWDDSLNGFYVFGTGTKVTVL
B4: TCN-545 (5082_I15) (antibody, V domains shown)
VH: QVQLQQWGAGLLKPSETLSLSCAVFGGSFSDYYWTWIRQPPGKGLEWIGEIKHSGRTNYNPSLESRVTISVDTSKNQFSLKLSSVTAADTAIYYCARGTDPDTEGYCRSGSCSAFDFWGQGTLVTVSS
VL: EIVLTQSPGTLSLSPGERATLSCRASHFVNYRSLAWYQQTPGQVPRLLIYGASTRATGIPDRFSGSGSGTDFTLTISRLEPEDFAVYFCQQYGGSPRYTFGQGTRLEIK
B5: TCN-546 (5089_L08) (antibody, V domains shown)
VH: QVQLQQWGAGLLKPSETLSLTCGVYGGSLSDYYWSWIRQPPGKGLEWIGEINHSGGTNYNPSLKRRVTISVDTSKKQFSLKMNSVTAADTAVYYCARGTDPDTEVYCRAGNCAAFDFWGQGTLVTVSS
VL: EIVLTQSPGTLSLSPGERATLSCRASHFVIGRAVAWYQQKPGQAPRLLIYGASSRATGIPDRFSGSGSGTDFTLTISRLETEDFAVFYCQHYGSSPRYAFGQGTKLEIK
B6: TCN-547 (5092_F11) (antibody, V domains shown)
VH: QVQLQESGPGLVKPSQTLSLTCTVSGDSISSVDHYWSWIRQHPVKGLEWIGFMYYSASTYYNPSLKSRVTISTDTSKNQFSLRLSSVTAADTAVYYCARGTCAGDCSLHYYYYGLDVWGQGRTVTVSS
VL: DIQMTQSPSSLSASVGDRVTITCRASQSISSYLNWYQHKPGKAPKVLMYAVSILQSGVPSRFSGSGSGADFTLTISSLQPEDFATYYCQQSYSSPLTFGGGTKVEIK
B7: TCN-548 (5092_P01) (antibody, V domains shown)
VH: QVQLQESGPGLVKPSETLSLTCTVSSGPMSDYYWSWIRQPPGKGLEWIGHVSVSHGGRTKSNPSVMSRVTISVETSKNQFSLKLTSVTAADTAVYYCARLNYYDRSGYHSPDGPSNNWFDPWGQGTLVTVSS
VL: DIVMTQSPDSLAVSLGERATINCKSSQSVLYSSNNKNYLAWYQQKPGQPPKLLIYWASTRESGVPDRISGSGSGADFTLTISSLQAEDVAVYYCQQYFATPRTFGQGTKVEIK
B8: TCN-549 (5092_P04) (antibody, V domains shown)
VH: QVQLVQSGAEVKKPGASVKVSCKASGYTFTGYYMHWVRQAPGQGLEWMGWINPNSGDTNYAQKFQGRVTMTRDTSITTAYMELSSLRSDDTAVYYCARDSPYSSSWSFFDYWGQGPLVTVSS
VL: B7 VL with N37S, Y38H, I68F, A75T, T80I, F98Y, A99F, T100S, R102L, Q106G
B9: TCN-550 (5096_F06) (antibody, V domains shown)
VH: QVQLQESGPGLVKPSETLSLTCTVSGASINSHYWSWIRQPPGKGLEWIGYVYYSGSTTYNPSLKSRVTLSVDTSKNQFSLNLSSVTAADTAFYYCARHPYDVLTGSGDWFDPWGQGTLVTVSS
VL: SYVLTQAPSVSVAPGQTARITCGGNAIGSKKVHWYQHKAGQAPVLVVYDDTDRPSGIPERFSGSNSWSTATLTINRVEAGDEADYYCQVWDFTIDHVVFGGGTKLTVL

Target: Hemagglutinin of influenza A/Wisconsin/67/05 (H3N2), on inactivated whole virions (Influenza A virus A/Wisconsin/67/2005 …)
Test: ELISA, B cell culture supernatant on inactivated whole virions

Binder | OD450 [OD450]
B1 | 3.13
B2 | 0.07
B3 | 2.71
B4 | 0.47
B5 | 3.69
B6 | 3.68
B7 | 3.62
B8 | 3.58
B9 | 3.65

From patent US20120207760A1, “Compositions and Methods for the Therapy and Diagnosis of Influenza” (THERACLONE SCIENCES, published 2012)
